Data as given in ChEMBL document CHEMBL4041536, “Design, synthesis and biological activity of novel molecules designed to target PARP and DNA” (Bioorg Med Chem Lett, 2017).
Activity calls are given as the source filed them. No cut-off for these calls is given here.

Tests used:
Cricetulus griseus [1] = species: Cricetulus griseus; test: Selectivity ratio of PARP inhibition in chinese hamster VC8 cells harboring wild type BRCA2 to PARP inhibition in chinese hamster VC8 cells harboring BRCA2 mutant; type: cell-based
Cricetulus griseus [2] = species: Cricetulus griseus; test: Inhibition of PARP in chinese hamster VC8 cells harboring BRCA2 mutant assessed as growth inhibition; type: cell-based

SMILES: O=c1[nH]ccc2c(/N=N/N(CCCl)CCCl)cccc12
- Selectivity ratio (Cricetulus griseus [1]): 2 to 7
- inhibition (Cricetulus griseus [2]): inactive
